The subject of the data set is T1, Bcal3178 (LysR family regulator) (Burkholderia cenocepacia H111).
T1 sequence (looked up): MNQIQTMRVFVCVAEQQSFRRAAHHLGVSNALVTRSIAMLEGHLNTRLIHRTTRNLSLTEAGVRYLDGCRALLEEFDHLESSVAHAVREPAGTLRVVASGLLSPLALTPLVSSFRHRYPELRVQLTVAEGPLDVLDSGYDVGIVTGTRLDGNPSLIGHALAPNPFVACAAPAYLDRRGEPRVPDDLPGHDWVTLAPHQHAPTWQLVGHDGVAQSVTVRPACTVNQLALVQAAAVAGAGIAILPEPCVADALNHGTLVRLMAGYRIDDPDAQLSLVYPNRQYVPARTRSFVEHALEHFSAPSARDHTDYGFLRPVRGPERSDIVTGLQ
The experiment in a line: EMSA. The conditions noted are these: unlabeled probe reduces binding; Binding reactions per manufacturer's instructions (Thermo), 3'-biotin probes, 5% polyacrylamide gel; pH and temperature not stated; recombinant protein; residues 1-327; protein details: GST (pGEX-6p-1); label: 3'-biotin; probe letters rebuilt from the primers and the genome.

Protein sequences can lack the tags named with them.

As for “CGAACATGAATAGGGCCTCACCGGCGCCGCACCCGTGAAGCATATCGATGGGGCCAGCCGCCGCCTATCGGACTGGACTGATTCTGCGCCAACGCGCGTGTCGGGAGACGACGCGGAATGAATGCGACCGGTTGACAGCCGTGGCCACCCTGTGATTTGATGCCGGTCATGCACGCCGCCCAGTTCCTCTTCTCGCTACGACTACTAGCCCGCTTCTCCGGGCTGGGTCTGCGGCTGCGCGCTTTCCATCTGCTTCTTTCCTGAAGCGCCAGATTTTCCCCGCATCACCGACCTGGCCCCGGTTGTCGACCGGCGCCTGAGTTCGTCTTTCTTCCGTCACCACTCCGCTCCGTCCCGGTCGCCCAACCGCCAAGGCCGTCGTTTGCCGTACCGCTTTGCCGTTGTGCCGCTTTTTTGCCGTTCTTACCGCTGCGCATGGACCCGGCTCATCACGCCGATGGCCGCCGCGCCGCGCTTCACCGACAAACAGACCGAGGACCGACATC (double strand) [bclACB promoter 506 bp]”, the binding result is recorded as “binds”.

The values are drawn from article PMC8174753.
